Data reported in paper PMC9296231.

Tests used:
Conditions in all cases: bispecific antibody
[1] = molecular target: SARS2 S trimer Omicron BA.1 (SARS-CoV-2) (UniProt P0DTC2); test: BLI
[2] = molecular target: SARS2 RBD Omicron BA.1 (SARS-CoV-2) (UniProt P0DTC2); test: BLI
[3] = molecular target: SARS2 S trimer Omicron BA.1 (SARS-CoV-2) (UniProt P0DTC2); test: ELISA
[4] = molecular target: SARS2 RBD Omicron BA.1 (SARS-CoV-2) (UniProt P0DTC2); test: ELISA

F6-ab8-Fc (from UniProt P01857)
Kd [1]: 0.021 µM
Kd [2]: 0.0387 µM
EC50 [3]: 0.0369 µM
EC50 [4]: 0.0191 µM
